Results of unrelated studies side by side (data: NIAID ChemDB).

Common to all: tests in culture; species: Candida albicans; measure: EC50

a–b is a range or a potency band. ECn: concentration that inhibits the pathogen or its effect by n%. Lines come from different laboratories, so protocols vary. Blank or dashed fields: not listed here.

CC(C)C[C@@H]1CN2C(=NC[C@H]2C2CCCCC2)N1CCC12CC3CC(CC(C3)C1)C2 ; strain or isolate: ATCC 10231 ; value: 48.6 µg/mL
CCC(C)CC(C)CCCCCCCCC(=O)N[C@H]1C[C@@H](O)[C@@H](OCCN)NC(=O)[C@@H]2C[C@@H](O)CN2C(=O)[C@H]([C@H](O)CCN)NC(=O)[C@H]([C@H](O)[C@@H](O)c2ccc(O)cc2)NC(=O)[C@@H]2C[C@@H](O)CN2C(=O)[C@H]([C@@H](C)O)NC1=O ; strain or isolate: MY1055 ; value: >20 µg/mL
CC(C)=CCC/C(C)=C/CCC(C)=CCCC[n+]1ccccc1.Cc1ccc(S(=O)(=O)[O-])cc1 ; strain or isolate: CCH442 ; value: 0.36 µM
N[C@H]1CC[C@H]1C(=O)O ; value: 128 µg/mL
Oc1ccc(C(c2cc(Br)c(O)cc2O)c2cc(Br)c(O)cc2O)cc1 ; strain or isolate: ATCC 10231 ; value: 25 µg/mL
CC(C)(C)C1CCC(CN2C3=NC[C@H](C4CCCCC4)N3C[C@@H]2C2CCCCC2)CC1 ; strain or isolate: ATCC 10231 ; value: 24.1 µg/mL
C=C1C[C@@H](N)[C@@H](C(=O)O)C1 ; value: 128 µg/mL
C[C@H]1[C@@H](OCCCCO)O[C@@H]2O[C@]3(C)CC[C@H]4[C@H](C)CC[C@@H]1C24OO3 ; strain or isolate: ATCC 90028 ; value: >50 µg/mL
C[C@H](COc1ccc(/C=C2\SC(=S)N(CC(=O)O)C2=O)cc1O[C@H](c1ccccc1)C(F)(F)F)c1ccccc1 ; strain or isolate: G418-sensitive ; value: 0.015 µM
C[C@H]1C=C[C@@H](CC23CC4CC(CC(C4)C2)C3)OO1 ; value: 125–250 µM
c1ccc([Te][Te]c2ccccc2)cc1 ; value: 2–10 µM
CCCCCCCCCCCCCCCC[n+]1ccccc1 ; strain or isolate: CCH442 ; value: 3.7 µM
CC(=O)O[C@@H]1C[C@@]23C(=O)OC[C@](C)([C@@H]2CC[C@H]2C3=CC[C@@]3(C)[C@H](C(=O)O)[C@@](C)([C@H](C)C(C)C)CC[C@]23C)[C@H]1O[C@@H]1O[C@H](CO)[C@@H](O)[C@H](O)[C@H]1O ; strain or isolate: MY1055 ; value: 10 µg/mL
CO[C@@H]1O[C@@H]2O[C@]3(C)CC[C@H]4[C@H](C)CC[C@@H]([C@H]1C)C24OO3 ; strain or isolate: ATCC 90028 ; value: >50 µg/mL
Cc1ccc[n+](CCCCC(C)CCCC(C)CCCC(C)C)c1.O=C([O-])C(F)(F)F ; strain or isolate: CCH442 ; value: 0.47 µM
C[C@H]1OO[C@@H](CC(=O)OCC2[C@H]3C[C@@H]4C[C@H](C3)C(Br)[C@H]2C4)[C@H]2O[C@H]21 ; value: >1000 µM
O=C(O)c1ccccc1 ; strain or isolate: ATCC 10231 ; value: 0.73 µM
CC/C=C/C(CC)CCC[C@@]1(CC)C[C@H](CC)[C@H](CC(=O)O)OO1 ; value: 5 µg/mL
CCCCCSc1nc2ccc(N)cc2s1 ; strain or isolate: IEM 49/64 ; value: <100 µM
CC(C)=CCC/C(C)=C/CCC(C)=CCCC[n+]1ccccc1 ; strain or isolate: CCH442 ; value: >50 µM
C=C1CC(N)[C@H](CO)C1 ; value: >256 µg/mL
NC(=O)OC[C@H](O)[C@@H](O)[C@H](N)C(=O)N[C@H](C(=O)O)[C@H]1O[C@@H](n2cc(C(=O)O)c(=O)[nH]c2=O)[C@H](O)[C@@H]1O ; strain or isolate: H317 ; value: 1000 µM
CCCCN1C2=NC[C@H](Cc3ccccc3)N2C[C@@H]1Cc1ccccc1 ; strain or isolate: ATCC 10231 ; value: >250 µg/mL
C[C@H]1OO[C@@H](CC(=O)OCC2C3CC4CC(C3)CC2C4)[C@@H]2O[C@@H]21 ; value: >1000 µM
CCCC(N)CC(=O)O ; value: >256 µg/mL
CC(C)CCCC(C)CCCC(C)CCCC[n+]1ccc(N(C)C)cc1.O=C([O-])C(F)(F)F ; strain or isolate: CCH442 ; value: 0.66 µM
c1ccc2c(c1)-c1nccc3ccnc-2c13 ; strain or isolate: B311 ; value: 5.25 µg/mL
C=C1C(=O)O[C@@H]2O[C@]3(C)CC[C@H]4[C@H](C)CC[C@@H]1C24OO3 ; strain or isolate: ATCC 90028 ; value: >50 µg/mL
C[C@@H]1CC[C@@]2(OC1)O[C@H]1[C@@H](O)[C@H]3[C@@H]4CC[C@H]5C[C@@H](O[C@@H]6O[C@H](CO)[C@H](O[C@@H]7O[C@H](CO)[C@@H](O)[C@H](O[C@@H]8OC[C@@H](O)[C@H](O)[C@H]8O)[C@H]7O[C@@H]7O[C@H](CO)[C@H](O)[C@H](O[C@@H]8O[C@H](CO)[C@@H](O)[C@H](O)[C@H]8O)[C@H]7O)[C@H](O)[C@H]6O)[C@H](O)C[C@]5(C)[C@H]4CC[C@]3(C)[C@H]1[C@@H]2C ; strain or isolate: MY1055 ; value: 10 µg/mL
CCN1C2=NC[C@H](C3CCCCC3)N2C[C@@H]1Cc1ccccc1 ; strain or isolate: ATCC 10231 ; value: >64 µg/mL
CCCCC(NC(=O)C(N)CC(C)C)C(=O)NC(C(=O)O)[C@H]1O[C@@H](n2ccc(=O)[nH]c2=O)[C@H](O)[C@@H]1O ; strain or isolate: H317 ; value: 500 µM
C1CCC(C[C@@]23COOC[C@@H]2O3)CC1 ; value: 125–250 µM
C[C@@H]([C@H](N)C(=O)N[C@H](C(=O)O)[C@H]1O[C@@H](n2ccc(=O)[nH]c2=O)[C@H](O)[C@@H]1O)[C@H](O)c1ccc(O)cn1 ; strain or isolate: MY1055 ; value: >50 µg/mL
C[C@H]1[C@@H](Oc2ccc(O)cc2)O[C@@H]2O[C@]3(C)CC[C@H]4[C@H](C)CC[C@@H]1C24OO3 ; strain or isolate: ATCC 90028 ; value: >50 µg/mL
C1C2CC3CC1CC(C2)C3[C@H]1OOC[C@H]2O[C@@H]12 ; value: 125–250 µM

For reference, 2 entries again:

SMILES,strain or isolate,value
CCCC(N)CC(=O)O,,>256 µg/mL
CC(C)=CCC/C(C)=C/CCC(C)=CCCC[n+]1ccccc1.Cc1ccc(S(=O)(=O)[O-])cc1,CCH442,0.36 µM